The entries are a selection whose mix differs from that of the whole data set. Results filed as inconclusive are left out. Activity calls are given as the source filed them. The call rests on the fitted dose curve; tested in A549 cells.
Assay: qHTS for Stage-Specific Inhibitors of Vaccinia Orthopoxvirus: Venus Reporter Primary qHTS; further: nearly all actives have a fitted effect of over 30% in size
Details: Vaccinia virus Venus reporter expression, fluorescence
Potency means the concentration at half of the fitted maximal effect.

Q: With CC(=O)O[C@H]1C[C@@H]2OC3C=C(C)CCC3(C)[C@@]1(C)[C@@]21CO1 (some centres not stated) as the compound, how does the Potency read?
A: The Potency was active: 1260 nM.

Q: For CC(O)C1C=CC=CC(=O)OC2CC3OC4C5OC5(C)C(O)CC4(COC(=O)C(O)C(C)CCO1)C2(C)C31CO1 (configuration not stated), which Potency is on record?
A: Its Potency is active: 1000 nM.

Q: For CC1=CC2OC3CC4OC(=O)C=CC=CC(C(C)O)OCC(O)C5(C)OC5C(=O)OCC2(CC1O)C4(C)C31CO1 (configuration not stated), which Potency is on record?
A: The Potency was active: 316 nM.

Q: For C[C@H]1[C@@H](OS(=O)(=O)O)C[C@@H]2C[C@H]([C@@H](O)c3cc(=O)[nH]c(=O)[nH]3)NC3=NC[C@H]1N32, which Potency is on record?
A: Its Potency is active: 3160 nM.

Q: With CC1=CC2OC3CC4OC(=O)C=CC=CC(=O)OCCC(C)C(O)C(=O)OCC2(CC1)C4(C)C31CO1 (configuration not stated) as the compound, how does the Potency read?
A: The Potency was active: 8910 nM.

Q: Which Potency does the source give for C=C(C=O)CC1CC(O)[C@]2(C)OC3CC4OC5C[C@]6(C)O[C@]7(C)CCC8OC9C[C@]%10(C)OC%11C(C)=CC(=O)OC%11CC%10OC9C[C@@H](C)C8OC7CC6O[C@]5(C)CC5OC5C4OC3CC2O1 (some centres not stated) here?
A: The Potency was active: 11200 nM.

Q: For CC(O)C1C=CC=CC(=O)OC2CC3OC4C5OC5(C)CCC4(COC(=O)C4OC4(C)C(O)CO1)C2(C)C31CO1 (configuration not stated), which Potency is on record?
A: The Potency was active: 316 nM.

Reference: PubChem BioAssay AID720580 (National Center for Advancing Translational Sciences (NCATS), 2013)
